Molecular target: NHBA (Neisseria Heparin Binding Antigen), recombinant (Neisseria meningitidis MC58 (serogroup B)) (UniProt Q7DD37)
Assay: SPR
Details: NHBA immobilized by amine coupling on CM5, DNA as analyte, saturation not reached, not 1:1; SPR: Biacore T200, CM5 chip, 1:5 dilution series 1 nM-100 uM, single cycle kinetics; recombinant protein; residues 25-488; probe letters rebuilt from the primers and the genome

Chains of the proteins cited; added tags and fusions are not shown. Residues count along the entry.
UniProt Q7DD37, 25-488: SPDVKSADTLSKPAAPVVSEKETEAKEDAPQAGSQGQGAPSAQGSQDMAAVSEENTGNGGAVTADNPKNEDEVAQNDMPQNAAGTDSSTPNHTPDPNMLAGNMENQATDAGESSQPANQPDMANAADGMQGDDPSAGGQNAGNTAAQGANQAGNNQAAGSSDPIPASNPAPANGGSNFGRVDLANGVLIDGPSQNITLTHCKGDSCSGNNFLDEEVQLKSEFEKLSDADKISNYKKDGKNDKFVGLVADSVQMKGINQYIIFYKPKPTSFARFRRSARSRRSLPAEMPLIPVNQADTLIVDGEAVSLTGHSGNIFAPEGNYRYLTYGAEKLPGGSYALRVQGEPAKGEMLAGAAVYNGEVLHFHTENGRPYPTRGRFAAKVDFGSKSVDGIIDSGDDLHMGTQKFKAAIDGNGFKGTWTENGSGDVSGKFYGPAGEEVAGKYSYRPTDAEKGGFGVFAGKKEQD

“GAAGCCTGAATGCCTTTCCAGCCGCCGATAGACGAACCGTCAAACGCCTGACCGTTTTCGAACCACTCTTCGGGGTCTTCCAACACGATGCGCGCAGGCACGGTAAAGTGGTGCTGCTTGCCTTTGGTATCGGTAAAGCGCAAATCGACAAAGCGGGCTTCGCTTTCTTCAATCAATTTTACGGCGTTTTTAATAGACATTTTTCAGCTCCTGGAAAAGGGAAATAGCAAAATATGCGGAACGCGGCGGCTTGACGCAAAGTCGGCACGATTTTACCACGCCGATGCCGTCTGAAACCGGTTTTGCGTCAAATTTCAAGCCGGAAAATATAGTTTCAGACGGCAAGATTGTCAACAATGCGGACAAGCCGGCGCACCGCATCCGGATTTTTCCCGACCGATACAGGAAACGATGCCGTCTGAAGGCGGTTTCAGACGGCATCGTTTCCATCTGTACGCCGCCGTTATAAAATAGCCTTCCCGTCTTTTGGAACACGACC (double strand) [503 bp PCR fragment of N. meningitidis genomic DNA]” was tested, and the Kd was 71 nM.

Reference: PMC5916922, “The Bexsero Neisseria meningitidis serogroup B vaccine antigen NHBA is a high-affinity chondroitin sulfate binding protein” (Scientific Reports, 2018)
